Results on one substance are retold here after paper PMC5802825, “Legionella DotM structure reveals a role in effector recruiting to the Type 4B secretion system” (2018).

This experiment deals with DotM153 (DotM residues 153–380), wild type (L. pneumophila). Briefly: SEC-MALS; DotM153 in solution; conditions not given. A general note: In gel filtration, larger molecules generally elute earlier.

As to “DotM153 (DotM residues 153–380), wild type (domain or fragment)”, the stoichiometry N is 2.

Usually stoichiometry N stands for the number of molecules, sites or subunits per partner or assembly.
